Compound potency records, mixed from different reports. Data source: NIAID ChemDB in PubChem.

Common to all: whole-cell or culture tests; species: Plasmodium falciparum; measure: EC50

Conditions beyond the fields shown may differ between rows. Blank or dashed fields: not listed here. ECn: concentration that inhibits the pathogen or its effect by n%.

| compound | changes | setting | strain | cell line | method | result |
|---|---|---|---|---|---|---|
| O=C1[C@@H](NCCCNc2ccnc3cc(Cl)ccc23)[C@@H](/C=C/c2ccccc2)N1C1CCCCCC1 | Chloroquine-resistant |  | W2 |  | flow cytometry | 0.176 µM |
| N=C(N)c1cccc(OCCCCOc2cccc(C(=N)N)c2)c1 |  |  | W2 |  | hypoxanthine uptake | 0.051 µM |
| Cn1nc(C(F)(F)F)c(-c2ccc(Br)cc2)c1NC(=O)Nc1ccc(F)cc1F | KAE609-resistant (D1247Y) |  | KAE609R-3 |  | SYBR Green / fluorescence | 0.458 µM |
| NC(=S)N/N=C/c1ccc(Cl)cc1 |  |  | NF54 |  | LDH | >10 µg/mL |
| N=C(N)c1ccc(NCCNc2ccc(C(=N)N)cc2N)c(N)c1 |  |  | D6 |  | hypoxanthine uptake | >1 µM |
| NCCSC[C@H](N)C(=O)N(O)C1C[C@@H](C(N)=O)N(C(=O)c2ccc(-c3cccc([N+](=O)[O-])c3)o2)C1 |  | 48 h | 3D7 | Red blood cells | flow cytometry | 151 µM |
| CC(C)OC(C)C | CQ-resistant |  | W2 | Human dermal fibroblasts | MTT | 9.5 µg/mL |
| COc1cc(C2=NCCN2)ccc1OCCCCOc1ccc(C2=NCCN2)cc1OC |  |  | W2 |  | hypoxanthine uptake | 0.387 µM |
| CCOC(=O)C1=C(C(=O)OCC)C2N(Cc3ccccc3C(F)(F)F)c3ccccc3[C@@]23C[C@@H](C(=O)OC)N(S(=O)(=O)c2ccc(C)cc2)C3=N1 |  |  | CP250 |  | SYBR Green / fluorescence | 0.6 µM |
| O=C(CCNc1ccnc2cc(Cl)ccc12)N[C@H]1C(=O)N(C2CCCCC2)[C@H]1/C=C/c1ccccc1 | Chloroquine-resistant |  | W2 |  | flow cytometry | 0.4326 µM |
| CCCCCC[C@]12Cc3cc(OC)c(OC)cc3[C@@H](O1)c1c(c3ccccc3n(C)c1=O)O2 |  |  | 7G8 GB4 |  | SYBR Green / fluorescence | 1 µM |
| O=C(/C=C/C=C/c1ccc2c(c1)OCO2)c1ccc(Cl)cc1 |  |  | Dd2 |  | SYBR Green / fluorescence | 73 µM |
| CC[C@H]1OC(=O)[C@H](C)[C@@H](OC2C[C@@](C)(OC)[C@@H](O)[C@H](C)O2)[C@H](C)[C@@H](OC2O[C@H](C)C[C@H](N(C)C)[C@H]2O)[C@](C)(OC2C[C@H](N)[C@H](O)[C@H](C)O2)C[C@@H](C)C(=O)[C@H](C)[C@@H](O)[C@]1(C)O |  | 120 h | W2 Mef | RBC | fluorescence | 11.3 µM |
| O=C(CCCCCNc1ccnc2cc(Cl)ccc12)N[C@H]1C(=O)N(C2CCCCC2)[C@H]1/C=C/c1ccccc1 | Chloroquine-resistant |  | W2 |  | flow cytometry | 0.1867 µM |
| CCCCN1C(=O)c2ccccc2NC1c1ccc(OC)cc1 |  |  | 3D7 |  | luciferase | >20 µM |
| C[C@H]1CCc2c([nH]c3ccccc23)[C@@]2(N1)C(=O)Nc1ccc(Cl)cc12 | GNF-Pf4492-resistant A211T |  | GNF-Pf4492R-1 |  | SYBR Green / fluorescence | 0.00163 µM |
| COC(=O)C1=C(C(=O)OC)C2N(Cc3ccccc3)c3ccccc3[C@@]23C[C@@H](C(=O)OC)N(S(=O)(=O)c2ccc(Br)cc2)C3=N1 |  |  | 7G8 GB4 |  | SYBR Green / fluorescence | 2.5 µM |
| Cc1[nH]c(C)c(Cl)c(=O)c1Cl |  |  | W2 | RBC | flow cytometry | 9.73 µM |
| O=C1c2ccccc2NC(c2ccc(Cl)cc2)N1C1CC1 |  |  | 3D7 |  | luciferase | >20 µM |
| N=C(N)c1ccc(OCCCOc2ccc(C(=N)N)cc2N)c(N)c1 |  |  | W2 |  | hypoxanthine uptake | 0.175 µM |
| CN(CCCNc1ccnc2cc(Cl)ccc12)Cc1cc(=O)c(O)cn1C1CC1 |  |  | K1 |  | radiometric | 0.46 µM |
| Cc1c(-c2ccc(-c3ccc(OC(C)(C)C)cc3)nc2)[nH]c2ccccc2c1=O |  |  | TM902CB |  | SYBR Green | 0.156 µM |
| COc1cc(OC)c(OC)cc1/C=C/C=C/C(=O)c1ccc(Cl)c(Cl)c1 |  |  | Dd2 |  | SYBR Green / fluorescence | 78 µM |
| NC(=S)N/N=C/c1ccccc1.[Cl][Ru+].c1ccccc1 |  |  | NF54 |  | LDH | 10.2 µM |
| CCN(CC)CCN1C(=O)c2ccccc2NC1c1ccc(Br)cc1 |  |  | 3D7 |  | luciferase | 0.34 µM |
| O=C(/C=C/c1ccc(O)cc1)O[C@@H]1C2C=CO[C@H](O[C@@H]3O[C@@H](CO)[C@@H](O)[C@@H](O)[C@@H]3O)C2[C@]2(CO)O[C@H]12 |  |  | W2 Mef |  | hypoxanthine uptake / radiometric | 1.02 µM |
| O=C(/C=C/C=C/c1ccc2c(c1)OCO2)c1ccc(Br)cc1 |  |  | INDO |  | SYBR Green / fluorescence | 73 µM |
| NC(=S)N/N=C/c1ccc2ccccc2c1 |  |  | Dd2 |  | LDH | >10 µg/mL |
| COc1cc2c(cc1OC)[C@H]1O[C@](CCCCN3C(=O)c4ccccc4C3=O)(C2)OC2=C1C(=O)CC(C)(C)C2 |  |  | CP250 |  | SYBR Green / fluorescence | 8.7 µM |
| Cc1ccc(N2C(=O)[C@@H](NCCNc3ccnc4cc(Cl)ccc34)[C@H]2/C=C/c2ccccc2)cc1 | Chloroquine-resistant |  | W2 |  | flow cytometry | 0.0943 µM |
| COc1ccc([C@]23Cc4cc(C#N)ccc4[C@@H](O2)c2c(cc(-c4ccccc4)oc2=O)O3)cc1 |  |  | 7G8 GB4 |  | SYBR Green / fluorescence | 1.7 µM |
| CCCCN1C(=O)c2ccccc2NC1c1ccc(Cl)cc1 |  |  | 3D7 |  | luciferase | >20 µM |
| O=C(CCCNc1ccnc2cc(Cl)ccc12)N[C@H]1C(=O)N(c2ccc(F)cc2)[C@H]1/C=C/c1ccccc1 | Chloroquine-resistant |  | W2 |  | flow cytometry | 0.1421 µM |
| C[C@H]1[C@@H](OC(=O)CCC(=O)O)O[C@@H]2O[C@@]3(C)CC[C@H]4[C@H](C)CC[C@@H]1[C@@]24OO3 |  |  | Dd2 | Red blood cells | SYBR Green | 0.0015 µg/mL |
| CCN(CC)CCCC(C)Nc1ccnc2cc(Cl)ccc12 | KAE678-resistant pfatp4 I203M/I263V |  | KAE678R-3 |  | SYBR Green / fluorescence | 0.0124 µM |
| Cc1c(O)c2ccccc2c2c1sc(NCCCN(C)C)[n+]2C |  |  | D10 |  | hypoxanthine uptake | 0.21 µM |
| O=C(/C=C/C=C/c1ccc2c(c1)OCO2)c1ccc(F)cc1 |  |  | Dd2 |  | SYBR Green / fluorescence | 17 µM |
| Cn1cc(O)c(=O)cc1CNCCCCNc1ccnc2cc(Cl)ccc12 |  |  | K1 |  | radiometric | 0.07 µM |
| Cc1ccc(C(C)C)cc1.NC(=S)N/N=C/c1ccccc1.[Cl][Ru+] |  |  | Dd2 |  | LDH | 5.1 µM |
| N=C(N)c1ccc(NCCCCCCNc2ccc(C(=N)N)cc2N)c(N)c1 |  |  | W2 |  | hypoxanthine uptake | 0.133 µM |
| CC[n+]1c(Nc2ccccc2)sc2c(C)c(O)c3ccccc3c21 |  |  | D10 |  | hypoxanthine uptake | 10 µM |
| N=C(N)c1ccc(OCCCCCOc2ccc(C(=N)N)cc2Br)c(Br)c1 |  |  | W2 |  | hypoxanthine uptake | 0.146 µM |
| O=C(CCCCCNc1ccnc2cc(Cl)ccc12)N[C@H]1C(=O)N(C2CCCCCC2)[C@H]1/C=C/c1ccccc1 | Chloroquine-resistant |  | W2 |  | flow cytometry | 0.152 µM |
| Cn1cc(O)c(=O)cc1CNCCCNc1ccnc2cc(Cl)ccc12 |  |  | K1 |  | radiometric | 0.27 µM |
| O=C(/C=C/C=C/c1ccc(Cl)cc1)c1ccc(Br)cc1 |  |  | INDO |  | SYBR Green / fluorescence | 25 µM |
| C=C[C@]1(C)C[C@H](OC(=O)C(=C)CO)[C@H]2C(=C)C(=C)C[C@@H]2C1C(=C)CO |  |  | HB3 | Red blood cells | SYBR Green | 0.472 µg/mL |
| CC(C)CN1C(=O)[C@H](NC(=O)CNc2ccnc3cc(Cl)ccc23)[C@@H]1/C=C/c1ccccc1 | Chloroquine-resistant |  | W2 |  | flow cytometry | 1.03 µM |
| CCOC(C)=O |  |  | D10 | Human dermal fibroblasts | MTT | 61.3 µg/mL |
| O=C1c2ccccc2NC(c2ccc(Br)cc2)N1c1ccco1 |  |  | 3D7 |  | luciferase | >20 µM |
| CCN(CC)CCCC(C)Nc1ccnc2cc(Cl)ccc12 | MDR |  | Dd2 |  | absorbance | 0.13 µM |
| CCN(CC)CCN1C(=O)c2ccccc2NC1c1ccc(N(C)C)cc1 |  |  | 3D7 |  | luciferase | 2.08 µM |
| COc1cc(OC)c(OC)cc1/C=C/C=C/C(=O)c1ccc(Cl)cc1 |  |  | INDO |  | SYBR Green / fluorescence | 31.5 µM |
| COC(=O)c1c(C)cc(OC(=O)c2c(C)cc(O)c(C=O)c2O)c(C)c1O |  |  | W2 Mef |  | hypoxanthine uptake / radiometric | 1.78 µM |
| CC[C@H]1OC(=O)[C@H](C)[C@@H](OC2C[C@@](C)(OC)[C@@H](O)[C@H](C)O2)[C@H](C)[C@@H](OC2O[C@H](C)C[C@H](N(C)C)[C@H]2O)[C@](C)(OC2C[C@@H](N(C)C)[C@@H](O)[C@H](C)O2)C[C@@H](C)CN(C)[C@H](C)[C@@H](O)[C@]1(C)O |  | 120 h | 3D7AziR | RBC | fluorescence | 0.21 µM |
| CCN1C(=NCc2cccc(Cl)c2)N[C@@H](c2cccc(C(F)(F)F)c2)C(C(=O)OC)=C1C |  |  | 7G8 |  | SYBR Green / fluorescence | 9.8 µM |
| CCN(CC)CCCC(C)Nc1ccnc2cc(Cl)ccc12 |  |  | D6 |  | broth dilution / absorbance | 0.015 µM |
| CCCCN1C(=O)[C@@H](NCCCNc2ccnc3cc(Cl)ccc23)[C@H]1/C=C/c1ccccc1 | Chloroquine-resistant |  | W2 |  | flow cytometry | 0.3977 µM |
| N=C(N)c1ccc(OCCCCOc2ccc(C(=N)N)cc2Cl)c(Cl)c1 |  |  | W2 |  | hypoxanthine uptake | 0.089 µM |
| CCN(CC)CCN1C(=O)c2ccccc2NC1c1ccc(OC)c(COc2ccc(F)cc2)c1 |  |  | 3D7 |  | luciferase | >20 µM |
| CN(CCCNc1ccnc2cc(Cl)ccc12)Cc1cc(=O)c(O)cn1C |  |  | 3D7 |  | radiometric | 0.04 µM |
| Cc1c(O)c2ccccc2c2c1sc(NC1CCCCC1)[n+]2CCCN1CCOCC1 |  |  | Dd2 |  | hypoxanthine uptake | 0.19 µM |
| NCCSC[C@H](N)C(=O)N(O)C1C[C@@H](C(N)=O)N(C(=O)c2ccc3nc(-c4ccccc4Br)[nH]c3c2)C1 |  | 96 h | 3D7 | Red blood cells | flow cytometry | 84.7 µM |

Repeating the final 4 entries:

compound | changes | setting | strain | cell line | method | result
CCN(CC)CCN1C(=O)c2ccccc2NC1c1ccc(OC)c(COc2ccc(F)cc2)c1 |  |  | 3D7 |  | luciferase | >20 µM
CN(CCCNc1ccnc2cc(Cl)ccc12)Cc1cc(=O)c(O)cn1C |  |  | 3D7 |  | radiometric | 0.04 µM
Cc1c(O)c2ccccc2c2c1sc(NC1CCCCC1)[n+]2CCCN1CCOCC1 |  |  | Dd2 |  | hypoxanthine uptake | 0.19 µM
NCCSC[C@H](N)C(=O)N(O)C1C[C@@H](C(N)=O)N(C(=O)c2ccc3nc(-c4ccccc4Br)[nH]c3c2)C1 |  | 96 h | 3D7 | Red blood cells | flow cytometry | 84.7 µM